Experimental data from US11185516B2 (Laboratorios Silanes S.A. DE C.V., priority 2016, dated 2021).

Details: 1240 mg against metformin hydrochloride 1000 mg

CN(C)C(=N)N=C(N)N [Metformin glycinate, N,N-dimethylimidodicarbonimidic diamide glycinate]
bioequivalence (90% C.I. in magnitude and velocity): within the theoretical ranges of bioequivalence
